Laboratory results published in US20240109955A1 (published 2024).

Columns and labels:
Test in all cases: cell-based or functional assay
[1] = target: SARS-CoV-2 spike (S) protein, Delta variant B.1.617.2 (SARS-CoV-2, UniProt P0DTC2 14-1273)
[2] = target: SARS-CoV-2 spike (S) protein, Omicron sublineage BA.4/5 (SARS-CoV-2, UniProt P0DTC2 14-1273)
[3] = target: SARS-CoV-2 spike protein, Omicron sublineage BA.2.75.2 (R346T, F486S) (SARS-CoV-2, UniProt P0DTC2)

Binder	IC50, pseudovirus neutralization [1]	IC80, pseudovirus neutralization [1]	IC50, pseudovirus neutralization [2]	IC80, pseudovirus neutralization [2]	IC50, pseudovirus neutralization [3]	IC80, pseudovirus neutralization [3]
MX837 (other) chain 1: QTVVTQEPSFSVSPGGTVTLTCGLSSGSVSTAYFPSWYQQTPGQAPRTLIYGTNTRSSGVPDRFSGSILGNKAALTITGAQADDESDYYCVLYMGRGIVVFGGGTKLTVLGGSSGEIVLTQSPGTLSLSPGERATLSCRASQSVSSSYLAWYQQKPGQAPRLLIYSASSRATGIPDRFSGSGSGTDFTLTISRLEPEDFAVYFCQQYVGLTGWTFGQGTKVEIKGGGGSGGSGSGGGGSASGSGQMQLVQSGPEVKKPGTSVKVSCKASGFTFTSSAVQWVRQRQRLEWIGWIVVGSGNTNYAQKFQERVTITRDMSTSTAYMELSSLRSEDTAVYYCAAPNCSNVVCYDGFDIWGQGTMVTVSSGGSSGQVQLVESGGGVVQPGRSLRLSCAASGFTLSSYGMHWVRQAPGKGLEWVAVISYDGSNKYYVDSVKGRFTISRDNSKNTLYLQMNSLRAEDTAVYYCRWAYWELLPDYYYGMDVWGQGTTVTVSSASGGSGDKTHTCPPCPAPELLGGPSVFLFPPKPKDTLMISRTPEVTCVVVDVSHEDPEVKFNWYVDGVEVHNAKTKPREEQYNSYVVSVLTVLHQDWLNGKEYKCKVSNKALPAPIEKTISKAKGQPREPQVYTLPPCRDELTKNQVSLWCLVKGFYPSDIAVEWESNGQPENNYKTTPPVLDSDGSFFKKLTVDKSRWQQGNVFSCSVLHEALHSHYTQKSLSLSPG chain 2: DIQMTQSPSSVSASVGDRVIITCRASQGISSWLAWYQQKPGKAPKVLIYDASSLQSGVPSRFSGSGYGTDFTLTISSLQPEDSATYYCQQAKSFPITFGQGTRLEIKGGSSGEIVLTQSPGTLSLSPGERATLSCRASQSVSSSYLAWYQQKPGQAPRLLIYSASSRATGIPDRFSGSGSGTDFTLTISRLEPEDFAVYFCQQYVGLTGWTFGQGTKVEIKGGGGSGGSGSGGGGSASGSGQMQLVQSGPEVKKPGTSVKVSCKASGFTFTSSAVQWVRQRQRLEWIGWIVVGSGNTNYAQKFQERVTITRDMSTSTAYMELSSLRSEDTAVYYCAAPNCSNVVCYDGFDIWGQGTMVTVSSGGSSGQVQLVESGGGVVQPGRSLRLSCAASGFTFSSYAFHWVRQAPGKGLEWVAVISYDGSNQYYADSVKGRFTISRDNSKNTLYLQMNSLRADDTAVYYCARDLAIAVAGTWHYYNGMDVWGQGTTVTVSSASGGSGDKTHTCPPCPAPELLGGPSVFLFPPKPKDTLMISRTPEVTCVVVDVSHEDPEVKFNWYVDGVEVHNAKTKPREEQYNSYVVSVLTVLHQDWLNGKEYKCKVSNKALPAPIEKTISKAKGQPREPQVCTLPPSRDELTKNQVSLSCAVKGFYPSDIAVEWESNGQPENNYKTTPPVLDSDGSFFLVSKLTVDKSRWQQGNVFSCSVLHEALHSHYTQKSLSLSPG	10.3 nM	11.3 nM	5.93 nM	17.4 nM	–	–
MX835 (other) chain 1: QTVVTQEPSFSVSPGGTVTLTCGLSSGSVSTAYFPSWYQQTPGQAPRTLIYGTNTRSSGVPDRFSGSILGNKAALTITGAQADDESDYYCVLYMGRGIVVFGGGTKLTVLGGSSGEIVLTQSPGTLSLSPGERATLSCRASQSVSSSYLAWYQQKPGQAPRLLIYSASSRATGIPDRFSGSGSGTDFTLTISRLEPEDFAVYFCQQYGGLTGWTFGQGTKVEIKGGGGSGGSGSGGGGSASGSGQMQLVQSGPEVKKPGTSVKVSCKASGFTFTSSAVQWVRQRQRLEWIGWIVVGSGNTNYAQKFQERVTITRDMSTSTAYMELSSLRSEDTAVYYCAAPNCSNVVCYDGFDIWGQGTMVTVSSGGSSGQVQLVESGGGVVQPGRSLRLSCAASGFTLSSYGMHWVRQAPGKGLEWVAVISYDGSNKYYVDSVKGRFTISRDNSKNTLYLQMNSLRAEDTAVYYCRWAYWELLPDYYYGMDVWGQGTTVTVSSASGGSGDKTHTCPPCPAPELLGGPSVFLFPPKPKDTLMISRTPEVTCVVVDVSHEDPEVKFNWYVDGVEVHNAKTKPREEQYNSYVVSVLTVLHQDWLNGKEYKCKVSNKALPAPIEKTISKAKGQPREPQVYTLPPCRDELTKNQVSLWCLVKGFYPSDIAVEWESNGQPENNYKTTPPVLDSDGSFFKKLTVDKSRWQQGNVFSCSVLHEALHSHYTQKSLSLSPG chain 2: EIVLTQSPGTLSLSPGERATLSCRASQSVSSSYLAWYQQKPGQAPRLLIYSASSRATGIPDRFSGSGSGTDFTLTISRLEPEDFAVYFCQQYGGLTGWTFGQGTKVEIKGGSSGDIQMTQSPSSVSASVGDRVIITCRASQGISSWLAWYQQKPGKAPKVLIYDASSLQSGVPSRFSGSGYGTDFTLTISSLQPEDSATYYCQQAKSFPITFGQGTRLEIKGGGGSGGSGSGGGGSASGSGQVQLVESGGGVVQPGRSLRLSCAASGFTFSSYAFHWVRQAPGKGLEWVAVISYDGSNQYYADSVKGRFTISRDNSKNTLYLQMNSLRADDTAVYYCARDLAIAVAGTWHYYNGMDVWGQGTTVTVSSGGSSGQMQLVQSGPEVKKPGTSVKVSCKASGFTFTSSAVQWVRQRQRLEWIGWIVVGSGNTNYAQKFQERVTITRDMSTSTAYMELSSLRSEDTAVYYCAAPNCSNVVCYDGFDIWGQGTMVTVSSASGGSGDKTHTCPPCPAPELLGGPSVFLFPPKPKDTLMISRTPEVTCVVVDVSHEDPEVKFNWYVDGVEVHNAKTKPREEQYNSYVVSVLTVLHQDWLNGKEYKCKVSNKALPAPIEKTISKAKGQPREPQVCTLPPSRDELTKNQVSLSCAVKGFYPSDIAVEWESNGQPENNYKTTPPVLDSDGSFFLVSKLTVDKSRWQQGNVFSCSVLHEALHSHYTQKSLSLSPG	7.96 nM	34.9 nM	8.32 nM	27.4 nM	–	–
MX838 (other) chain 1: QTVVTQEPSFSVSPGGTVTLTCGLSSGSVSTAYFPSWYQQTPGQAPRTLIYGTNTRSSGVPDRFSGSILGNKAALTITGAQADDESDYYCVLYMGRGIVVFGGGTKLTVLGGSSGEIVLTQSPGTLSLSPGERATLSCRASQSVSSSYLAWYQQKPGQAPRLLIYSASSRATGIPDRFSGSGSGTDFTLTISRLEPEDFAVYFCQQYGGLTGWTFGQGTKVEIKGGGGSGGSGSGGGGSASGSGQMQLVQSGPEVKKPGTSVKVSCKASGFTFTSSAVQWVRQRQRLEWIGWIVVGSGNTNYAQKFQERVTITRDMSTSTAYMELSSLRSEDTAVYYCAAPNCSNVVCYDGFDIWGQGTMVTVSSGGSSGQVQLVESGGGVVQPGRSLRLSCAASGFTLSSYGMHWVRQAPGKGLEWVAVISYDGSNKYYVDSVKGRFTISRDNSKNTLYLQMNSLRAEDTAVYYCRWAYWELLPDYYYGMDVWGQGTTVTVSSASGGSGDKTHTCPPCPAPELLGGPSVFLFPPKPKDTLMISRTPEVTCVVVDVSHEDPEVKFNWYVDGVEVHNAKTKPREEQYNSYVVSVLTVLHQDWLNGKEYKCKVSNKALPAPIEKTISKAKGQPREPQVYTLPPCRDELTKNQVSLWCLVKGFYPSDIAVEWESNGQPENNYKTTPPVLDSDGSFFKKLTVDKSRWQQGNVFSCSVLHEALHSHYTQKSLSLSPG chain 2: DIQMTQSPSSVSASVGDRVIITCRASQGISSWLAWYQQKPGKAPKVLIYDASSLQSGVPSRFSGSGYGTDFTLTISSLQPEDSATYYCQQAKSFPITFGQGTRLEIKGGSSGEIVLTQSPGTLSLSPGERATLSCRASQSVSSSYLAWYQQKPGQAPRLLIYSASSRATGIPDRFSGSGSGTDFTLTISRLEPEDFAVYFCQQYGGLTGWTFGQGTKVEIKGGGGSGGSGSGGGGSASGSGQMQLVQSGPEVKKPGTSVKVSCKASGFTFTSSAVQWVRQRQRLEWIGWIVVGSGNTNYAQKFQERVTITRDMSTSTAYMELSSLRSEDTAVYYCAAPNCSNVVCYDGFDIWGQGTMVTVSSGGSSGQVQLVESGGGVVQPGRSLRLSCAASGFTFSSYAFHWVRQAPGKGLEWVAVISYDGSNQYYADSVKGRFTISRDNSKNTLYLQMNSLRADDTAVYYCARDLAIAVAGTWHYYNGMDVWGQGTTVTVSSASGGSGDKTHTCPPCPAPELLGGPSVFLFPPKPKDTLMISRTPEVTCVVVDVSHEDPEVKFNWYVDGVEVHNAKTKPREEQYNSYVVSVLTVLHQDWLNGKEYKCKVSNKALPAPIEKTISKAKGQPREPQVCTLPPSRDELTKNQVSLSCAVKGFYPSDIAVEWESNGQPENNYKTTPPVLDSDGSFFLVSKLTVDKSRWQQGNVFSCSVLHEALHSHYTQKSLSLSPG	36.4 nM	39.9 nM	7.84 nM	16 nM	–	–
MX834 (other) chain 1: QTVVTQEPSFSVSPGGTVTLTCGLSSGSVSTAYFPSWYQQTPGQAPRTLIYGTNTRSSGVPDRFSGSILGNKAALTITGAQADDESDYYCVLYMGRGIVVFGGGTKLTVLGGSSGEIVLTQSPGTLSLSPGERATLSCRASQSVSSSYLAWYQQKPGQAPRLLIYSASSRATGIPDRFSGSGSGTDFTLTISRLEPEDFAVYFCQQYVGLTGWTFGQGTKVEIKGGGGSGGSGSGGGGSASGSGQMQLVQSGPEVKKPGTSVKVSCKASGFTFTSSAVQWVRQRQRLEWIGWIVVGSGNTNYAQKFQERVTITRDMSTSTAYMELSSLRSEDTAVYYCAAPNCSNVVCYDGFDIWGQGTMVTVSSGGSSGQVQLVESGGGVVQPGRSLRLSCAASGFTLSSYGMHWVRQAPGKGLEWVAVISYDGSNKYYVDSVKGRFTISRDNSKNTLYLQMNSLRAEDTAVYYCRWAYWELLPDYYYGMDVWGQGTTVTVSSASGGSGDKTHTCPPCPAPELLGGPSVFLFPPKPKDTLMISRTPEVTCVVVDVSHEDPEVKFNWYVDGVEVHNAKTKPREEQYNSYVVSVLTVLHQDWLNGKEYKCKVSNKALPAPIEKTISKAKGQPREPQVYTLPPCRDELTKNQVSLWCLVKGFYPSDIAVEWESNGQPENNYKTTPPVLDSDGSFFKKLTVDKSRWQQGNVFSCSVLHEALHSHYTQKSLSLSPG chain 2: QTVVTQEPSFSVSPGGTVTLTCGLSSGSVSTAYFPSWYQQTPGQAPRTLIYGTNTRSSGVPDRFSGSILGNKAALTITGAQADDESDYYCVLYMGRGIVVFGGGTKLTVLGGSSGEIVLTQSPGTLSLSPGERATLSCRASQSVSSSYLAWYQQKPGQAPRLLIYSASSRATGIPDRFSGSGSGTDFTLTISRLEPEDFAVYFCQQYVGLTGWTFGQGTKVEIKGGGGSGGSGSGGGGSASGSGQMQLVQSGPEVKKPGTSVKVSCKASGFTFTSSAVQWVRQRQRLEWIGWIVVGSGNTNYAQKFQERVTITRDMSTSTAYMELSSLRSEDTAVYYCAAPNCSNVVCYDGFDIWGQGTMVTVSSGGSSGQVQLVESGGGVVQPGRSLRLSCAASGFTLSSYGMHWVRQAPGKGLEWVAVISYDGSNKYYVDSVKGRFTISRDNSKNTLYLQMNSLRAEDTAVYYCRWAYWELLPDYYYGMDVWGQGTTVTVSSASGGSGDKTHTCPPCPAPELLGGPSVFLFPPKPKDTLMISRTPEVTCVVVDVSHEDPEVKFNWYVDGVEVHNAKTKPREEQYNSYVVSVLTVLHQDWLNGKEYKCKVSNKALPAPIEKTISKAKGQPREPQVYTLPPCRDELTKNQVSLWCLVKGFYPSDIAVEWESNGQPENNYKTTPPVLDSDGSFFKKLTVDKSRWQQGNVFSCSVLHEALHSHYTQKSLSLSPG	–	–	–	–	> 10000 nM	> 10000 nM
